Measurements from article PMC11527256.

Target: Cdu1^CA, catalytically inactive Cdu1(130-401) with C345 mutated to Ala (Chlamydia trachomatis) (UniProt B0B9A0)
Assay: ITC

Q: How did the Kd turn out when “mono-ubiquitin (wildtype, tag-free) (from UniProt P0CG48 1-76) (natural protein)” was run?
A: 6.91 µM

Q: What about the dH of the same substance?
A: 1.66 kcal/mol

Q: What about the stoichiometry N of the same substance?
A: 0.81
